Anti-infective test results gathered from many reports (values: NIAID ChemDB through PubChem).

Shared fields: tests in culture; agent: Mycobacterium avium complex

A number after MIC or MFC names an inhibition level or a share of isolates. Rows are shuffled and stem from different studies.

{"structure": "NCCC[C@H](N)CC(=O)N[C@H]1CNC(=O)[C@H]([C@H]2C[C@H](O)NC(N)=N2)NC(=O)/C(=C/NC(N)=O)NC(=O)[C@H](CO)NC(=O)[C@H](CO)NC1=O", "strain or isolate": "Isolate 49", "read-out": "MIC", "value": "12.5 µg/mL"}
{"structure": "NC[C@H]1O[C@H](O[C@H]2[C@H](O)[C@@H](O[C@H]3O[C@H](CO)[C@@H](O)[C@H](N)[C@H]3O)[C@H](N)C[C@@H]2N)[C@H](O)[C@@H](O)[C@@H]1O", "strain or isolate": "isolate C-17 19 26 34 44", "read-out": "MIC", "value": "≤12.5 µg/mL"}
{"structure": "NCC[C@H](O)C(=O)N[C@@H]1C[C@H](N)[C@@H](O[C@H]2O[C@H](CN)[C@@H](O)[C@H](O)[C@H]2O)[C@H](O)[C@H]1O[C@H]1O[C@H](CO)[C@@H](O)[C@H](N)[C@H]1O", "strain or isolate": "1124", "read-out": "MIC", "value": "20 µg/mL"}
{"structure": "CC1CN(c2c(F)cc3c(=O)c(C(=O)O)cn(C4CC4)c3c2F)CC(C)N1", "strain or isolate": "14 strains", "read-out": "MIC50", "value": "1 µg/mL"}
{"structure": "CC[C@@H](CO)NCCN[C@@H](CC)CO", "strain or isolate": "13034 (serotype 18)", "read-out": "MIC", "value": "6.25 µg/mL"}
{"structure": "CCC1CCN(c2c(F)cc3c(=O)c(C(=O)O)cn(C4CC4)c3c2F)C1", "strain or isolate": "14 strains", "read-out": "MIC50", "value": "2 µg/mL"}
{"structure": "CO[C@H]1/C=C/O[C@@]2(C)Oc3c(C)c(O)c4c(O)c(c5c(c4c3C2=O)NC2(CCN(CC(C)C)CC2)N=5)=NC(=O)/C(C)=C\\C=C\\[C@H](C)[C@H](O)[C@@H](C)[C@@H](O)[C@@H](C)[C@H](OC(C)=O)[C@@H]1C", "strain or isolate": "2212-4", "read-out": "MIC", "value": "0.5 µg/mL"}
{"structure": "NC[C@H]1O[C@H](O[C@H]2[C@H](O[C@@H]3O[C@H](CO)[C@@H](O)[C@H]3O)[C@@H](O)[C@H](N)C[C@@H]2N)[C@H](N)[C@@H](O)[C@@H]1O", "strain or isolate": "Isolate 135", "read-out": "MIC", "value": "25 µg/mL"}
{"structure": "CO[C@H]1/C=C/O[C@@]2(C)Oc3c(C)c(O)c4c(O)c(c(/C=N/N5CCN(C/C=C/c6ccccc6)CC5)c(O)c4c3C2=O)NC(=O)/C(C)=C\\C=C\\[C@H](C)[C@H](O)[C@@H](C)[C@@H](O)[C@@H](C)[C@H](OC(C)=O)[C@@H]1C", "strain or isolate": "SK-22", "read-out": "MBC", "value": "2 µg/mL"}
{"structure": "CCNCC1CN(c2c(F)cc3c(=O)c(C(=O)O)cn(C4CC4)c3c2F)CC1CNCC", "strain or isolate": "PI12/39", "read-out": "MIC", "value": "32 µg/mL"}
{"structure": "NC[C@@H]1O[C@H](O[C@H]2[C@@H](O)[C@H](O[C@@H]3[C@@H](O)[C@H](N)C[C@H](N)[C@H]3O[C@H]3O[C@H](CO)[C@@H](O)C[C@H]3N)O[C@@H]2CO)[C@H](N)[C@@H](O)[C@@H]1O[C@H]1O[C@H](CO)[C@@H](O)[C@H](O)[C@@H]1O", "strain or isolate": "Isolate 93", "read-out": "MIC", "value": "3.13 µg/mL"}
{"structure": "CC1COc2c(N3CCN(C)CC3)c(F)cc3c(=O)c(C(=O)O)cn1c23", "strain or isolate": "551/HIV+", "read-out": "MIC", "value": "8 µg/mL"}
{"structure": "NC[C@@H]1O[C@H](O[C@H]2[C@@H](O)[C@H](O[C@@H]3[C@@H](O)[C@H](N)C[C@H](N)[C@H]3O[C@H]3O[C@H](CO)[C@@H](O)[C@H](O)[C@H]3N)O[C@@H]2CO)[C@H](N)[C@@H](O)[C@@H]1O", "strain or isolate": "TMC 1411", "read-out": "MIC", "value": "0.19 µg/mL"}
{"structure": "CC[C@@H](CO)NCCN[C@@H](CC)CO", "strain or isolate": "804/HIV+", "read-out": "MIC", "value": "<2 µg/mL"}
{"structure": "O=C(O)c1cn(C2CC2)c2c(F)c(N3CC4C(CO)C4C3)c(F)cc2c1=O", "strain or isolate": "1760694", "read-out": "MIC", "value": "32 µg/mL"}
{"structure": "CO[C@H]1/C=C/O[C@@]2(C)Oc3c(C)c(O)c4c(O)c(c(/C=N/N5CCN(C)CC5)c(O)c4c3C2=O)NC(=O)/C(C)=C\\C=C\\[C@H](C)[C@H](O)[C@@H](C)[C@@H](O)[C@@H](C)[C@H](OC(C)=O)[C@@H]1C", "strain or isolate": "26 isolates (HIV+)", "read-out": "MIC90", "value": "2 µg/mL"}
{"structure": "CN(C)CC1CCN(c2c(F)cc3c(=O)c(C(=O)O)cn(C4CC4)c3c2F)C1", "strain or isolate": "14 strains", "read-out": "MIC90", "value": "2 µg/mL"}
{"structure": "C[C@@H]1CN(c2c(F)c(N)c3c(=O)c(C(=O)O)cn(C4CC4)c3c2F)C[C@H](C)N1", "strain or isolate": "13", "read by": "broth dilution", "read-out": "MIC", "value": "2 µg/mL"}
{"structure": "CC1CN(c2c(F)cc3c(=O)c(C(=O)O)cn(C4CC4)c3c2F)C(C)CN1", "strain or isolate": "1915112", "read-out": "MIC", "value": "4 µg/mL"}
{"structure": "NNC(=O)c1ccncc1", "strain or isolate": "866", "read-out": "MIC", "value": ">16 µg/mL"}
{"structure": "C[C@@H]1CN(c2c(F)c(N)c3c(=O)c(C(=O)O)cn(C4CC4)c3c2F)C[C@H](C)N1", "strain or isolate": "1988557", "read-out": "MIC", "value": "1 µg/mL"}
{"structure": "NNC(=O)c1ccncc1", "strain or isolate": "13011 (serotype 16)", "read-out": "MIC", "value": "0.4 µg/mL"}
{"structure": "NCC[C@H](O)C(=O)N[C@@H]1C[C@H](N)[C@@H](O[C@H]2O[C@H](CN)[C@@H](O)[C@H](O)[C@H]2O)[C@H](O)[C@H]1O[C@H]1O[C@H](CO)[C@@H](O)[C@H](N)[C@H]1O", "strain or isolate": "Isolate 135", "read-out": "MIC", "value": "25 µg/mL"}
{"structure": "CC1CN(c2c(F)cc3c(=O)c(C(=O)O)cn(C4CC4)c3c2F)CCN1", "strain or isolate": "1915112", "read-out": "MIC", "value": "2 µg/mL"}

3 of the rows above, restated:

CC1CN(c2c(F)cc3c(=O)c(C(=O)O)cn(C4CC4)c3c2F)CCN1 ; strain or isolate: 1915112 ; read-out: MIC ; value: 2 µg/mL
CN(C)CC1CCN(c2c(F)cc3c(=O)c(C(=O)O)cn(C4CC4)c3c2F)C1 ; strain or isolate: 14 strains ; read-out: MIC90 ; value: 2 µg/mL
CO[C@H]1/C=C/O[C@@]2(C)Oc3c(C)c(O)c4c(O)c(c5c(c4c3C2=O)NC2(CCN(CC(C)C)CC2)N=5)=NC(=O)/C(C)=C\C=C\[C@H](C)[C@H](O)[C@@H](C)[C@@H](O)[C@@H](C)[C@H](OC(C)=O)[C@@H]1C ; strain or isolate: 2212-4 ; read-out: MIC ; value: 0.5 µg/mL